This data set relates to β-glucosidase (Cellobiase, Sigma). The experiment in a line: enzymatic decomposition of the scyllo-inositol derivative by Cellobiase (β-glucosidase), followed by HPLC. The data set is classed as biochemical, mold of the genus Aspergillus. Particulars: 6 mg/mL in 150 mM Bis-Tris buffer pH 7.0, 25 U/mL Cellobiase, 40° C.

Structures are written as SMILES.

For the compound `OC[C@@H]1O[C@@H](O[C@H]2[C@H](O)[C@H](O)[C@H](O)[C@@H](O)[C@H]2O)[C@@H](O)[C@@H](O)[C@@H]1O` [scyllo-inositol derivative, 1-O-β-D-glucopyranosyl-scyllo-inositol], the “decomposition by β-glucosidase to glucose and scyllo-inositol” value (start of reaction to after 20 hours) is “decomposed completely”; the “decomposition by β-glucosidase to glucose and scyllo-inositol” value (start of reaction to hour 3) is listed as “virtually all”.

Values taken from patent US9505795B2, “Method for producing scyllo-inositol” (Asahi Kasei Chemicals Corporation, priority 2012, dated 2016).
